The results in this text go back to US9668480B2, “Method for treating plants against fungi resistant to fungicides using carboxamide or thiocarboxamide derivatives” (priority 2012, dated 2017).

The subject of the assay is Botrytis cinerea boscalid-resistant strains with SDHB_P225H, F substitutions. The assay can be described thus: Sensitivity assay in microtiter plate, resistance factor of boscalid-resistant field strains versus Bo47 WT. The assay is classed as cell-based. The method, then: Four to five strains with SDHB_P225H, F substitutions were retained for subsequent sensitivity assays in microtiter plate. IC50 of test compounds were determined and resistance factors (RF) calculated as the ratio of IC50 mutant/IC50 WT (Bo47). […] Strains giving a RF below 10 were considered sensitive, moderately resistant when RF was comprised between 10 and 50, resistant above 50.

Setting [1] is: mutation P225F, BOTRCI strain 08BC1554.
Where [2] appears, read: mutation P225F, BOTRCI strain 08BC1557.
Setting [3] is: mutation P225F, BOTRCI strain 08BC1558.
The mark [4] stands for this setting: mutation P225F, BOTRCI strain 09BC2615.
[5] abbreviates: mutation P225H, BOTRCI strain 09BC2640.
[6] abbreviates: mutation P225H, BOTRCI strain 09BC2648.
Setting [7] is: mutation P225H, BOTRCI strain 09BC2649.
Where [8] appears, read: mutation P225H, BOTRCI strain 09BC2652.

For `CC(C)c1ccccc1CN(C(=O)c1c(C(F)F)nn(C)c1F)C1CC1` [Compound A1, N-cyclopropyl-3-(difluoromethyl)-5-fluoro-N-(2-isopropylbenzyl)-1-methyl-1H-pyrazole-4-carboxamide], the “resistance factor (RF), ratio of IC50 mutant/IC50 WT (Bo47)” value (“resistance factor (RF), ratio” for short) was 2.4 under setting [1]; 1.8 under setting [2]; 3.0 under setting [3]; 1.6 under setting [4]; 1.3 under setting [5]; 0.9 under setting [6]. Moreover, the “resistance factor (RF), ratio” value is, setting by setting: under setting [7], 1.1; under setting [8], 1.1.
On to `O=C(Nc1ccccc1-c1ccc(Cl)cc1)c1cccnc1Cl` [Boscalid, reference compound], for which the “resistance factor (RF), ratio” value under setting [1] is reported as over 171; the “resistance factor (RF), ratio” value under setting [2] was over 171; the “resistance factor (RF), ratio” value under setting [3] is given as over 171; the “resistance factor (RF), ratio” value under setting [4] was over 171; the “resistance factor (RF), ratio” value under setting [5] is over 171; the “resistance factor (RF), ratio” value under setting [6] is on record as over 171. Besides, the “resistance factor (RF), ratio” value is listed as over 171 under setting [7] and over 171 under setting [8].
Take `CC(C)c1ccc(Cl)cc1CN(C(=O)c1c(C(F)F)nn(C)c1F)C1CC1` [Compound A5, N-(5-chloro-2-isopropylbenzyl)-N-cyclopropyl-3-(difluoromethyl)-5-fluoro-1-methyl-1H-pyrazole-4-carboxamide]: the “resistance factor (RF), ratio” value runs as follows: under setting [1], 1.4; under setting [2], 1.3; under setting [3], 1.6; under setting [4], 0.8; under setting [5], 1.3; under setting [6], 0.8. In addition, the “resistance factor (RF), ratio” value by setting is: under setting [7], 0.9; under setting [8], 1.0.
With `Cn1nc(C(F)F)c(C(=O)N(Cc2c(C(F)(F)F)ccc(Cl)c2F)C2CC2)c1F` [Compound A18, N-[3-chloro-2-fluoro-6-(trifluoromethyl)benzyl]-N-cyclopropyl-3-(difluoromethyl)-5-fluoro-1-methyl-1H-pyrazole-4-carboxamide], the “resistance factor (RF), ratio” value by setting is: under setting [1], 0.4; under setting [2], 0.3; under setting [3], 0.5; under setting [4], 0.4; under setting [5], 0.4; under setting [6], 0.4. Also, the “resistance factor (RF), ratio” value reads like this: under setting [7], 0.5; under setting [8], 0.3.
